US20240122867A1, “CORONAL PROTEIN-COATED NANOPARTICLES AND USES THEREOF” (UNIVERSITY OF CENTRAL FLORIDA RESEARCH FOUNDATION, INC., priority 2021, published 2024)

System: coronal proteins on NPs
Parameters: species or system mouse
Details: for V5 Sera_Nanoparticles Quantitative Value (Normalized Total Spectra): HBPE-NPs incubated 1 h with IAV day 5 (V5) mouse sera, 20:1 NP:sera, centrifuged and washed; for V5 Sera Alone (Control) Quantitative Value (Normalized Total Spectra): IAV day 5 (V5) mouse sera alone, no NPs (sera-only control)

Molecule	V5 Sera_Nanoparticles Quantitative Value (Normalized Total Spectra)	V5 Sera Alone (Control) Quantitative Value (Normalized Total Spectra)
Inter-alpha-trypsin inhibitor heavy chain H2 (protein, UniProt Q61703 55-702, looked up) Inter-alpha-trypsin inhibitor …: SLPEESGEETDTVDPVTLYSYKVQSTITSRVATTTIQSKLVNNSPLPQSVVFDVQIPKGAFISNFTMTVNGMTFTSSIKEKTVGRALYSQARAKGKTAGWVRSRTLDMENFNTEVNIPPGAKVQFELHYQEVKWRKLGSYEHKIHLQPGKLAKHLEVNVWIIEPQGMRFLHVPDTFEGHFQGVPVISKGQQKAHVSFKPTVAQQRKCPNCTETAVNGELVVMYDVNREEKAGELEVFNGYFVHFFAPENLDPIPKNILFVIDVSGSMWGIKMKQTVEAMKTILDDLRTDDQFSVVDFNHNVRTWRNDLVSATKTQIADAKRYIEKIQPSGGTNINEALLRAIFILNEASNMGLLNPDSVSLIILVSDGDPTVGELKLSKIQKNVKQSIQDNISLFSLGIGFDVDYDFLKRLSNENRGIAQRIYGNQDTSSQLKKFYNQVSTPLLRNVQFNYPQASVTDVTQNNFHNYFGGSEIVVAGKFDPSKLTEVQSIITATSANTELVLETLSQMDDLEEFLSKDKHADPDFTKKLWAYLTINQLLAERSLAPTAAIKRKITKTILQMSLDHHIVTPLTAMVIENDAGDERMLADSPPQDHSCCSGALYYGTKVASGPIPSWANPSPTPMSAMLAVGAKPLESTPPTHLNQVEND	17.407	14.804
Carboxylesterase 1C (protein, UniProt P23953 19-554, looked up) Carboxylesterase 1C: HSLLPPVVDTTQGKVLGKYISLEGFEQPVAVFLGVPFAKPPLGSLRFAPPQPAEPWSFVKNATSYPPMCSQDAGWAKILSDMFSTEKEILPLKISEDCLYLNIYSPADLTKSSQLPVMVWIHGGGLVIGGASPYNGLALSAHENVVVVTIQYRLGIWGLFSTGDEHSPGNWAHLDQLAALRWVQDNIANFGGNPDSVTIFGESSGGISVSVLVLSPLGKDLFHRAISESGVVINTNVGKKNIQAVNEIIATLSQCNDTSSAAMVQCLRQKTESELLEISGKLVQYNISLSTMIDGVVLPKAPEEILAEKSFNTVPYIVGFNKQEFGWIIPMMLQNLLPEGKMNEETASLLLRRFHSELNISESMIPAVIEQYLRGVDDPAKKSELILDMFGDIFFGIPAVLLSRSLRDAGVSTYMYEFRYRPSFVSDKRPQTVEGDHGDEIFFVFGAPLLKEGASEEETNLSKMVMKFWANFARNGNPNGEGLPHWPEYDEQEGYLQIGATTQQAQRLKAEEVAFWTELLAKNPPETDPTEHTEHK	21.758	28.682
Beta-2-glycoprotein 1 (protein, UniProt Q01339 20-345, looked up) Beta-2-glycoprotein 1: GRICPKPDDLPFATVVPLKTSYDPGEQIVYSCKPGYVSRGGMRRFTCPLTGMWPINTLRCVPRVCPFAGILENGIVRYTSFEYPKNISFACNPGFFLNGTSSSKCTEEGKWSPDIPACARITCPPPPVPKFALLKDYRPSAGNNSLYQDTVVFKCLPHFAMIGNDTVMCTEQGNWTRLPECLEVKCPFPPRPENGYVNYPAKPVLLYKDKATFGCHETYKLDGPEEAECTKTGTWSFLPTCRESCKLPVKKATVLYQGMRVKIQEQFKNGMMHGDKIHFYCKNKEKKCSYTVEAHCRDGTIEIPSCFKEHSSLAFWKTDASELTPC	25.022	21.28
Pregnancy zone protein (protein, UniProt Q61838 25-1495, looked up) Pregnancy zone protein: ATAKPQYVVLVPSEVYSGVPEKACVSLNHVNETVMLSLTLEYAMQQTKLLTDQAVDKDSFYCSPFTISGSPLPYTFITVEIKGPTQRFIKKKSIQIIKAESPVFVQTDKPIYKPGQIVKFRVVSVDISFRPLNETFPVVYIETPKRNRIFQWQNIHLAGGLHQLSFPLSVEPALGIYKVVVQKDSGKKIEHSFEVKEYVLPKFEVIIKMQKTMAFLEEELPITACGVYTYGKPVPGLVTLRVCRKYSRYRSTCHNQNSMSICEEFSQQADDKGCFRQVVKTKVFQLRQKGHDMKIEVEAKIKEEGTGIELTGIGSCEIANALSKLKFTKVNTNYRPGLPFSGQVLLVDEKGKPIPNKNITSVVSPLGYLSIFTTDEHGLANISIDTSNFTAPFLRVVVTYKQNHVCYDNWWLDEFHTQADHSATLVFSPSQSYIQLELVFGTLACGQTQEIRIHYLLNEDIMKNEKDLTFYYLIKARGSIFNLGSHVLSLEQGNMKGVFSLPIQVEPGMAPEAQLLIYAILPNEELVADAQNFEIEKCFANKVNLSFPSAQSLPASDTHLKVKAAPLSLCALTAVDQSVLLLKPEAKLSPQSIYNLLPGKTVQGAFFGVPVYKDHENCISGEDITHNGIVYTPKHSLGDNDAHSIFQSVGINIFTNSKIHKPRFCQEFQHYPAMGGVAPQALAVAASGPGSSFRAMGVPMMGLDYSDEINQVVEVRETVRKYFPETWIWDLVPLDVSGDGELAVKVPDTITEWKASAFCLSGTTGLGLSSTISLQAFQPFFLELTLPYSVVRGEAFTLKATVLNYMSHCIQIRVDLEISPDFLAVPVGGHENSHCICGNERKTVSWAVTPKSLGEVNFTATAEALQSPELCGNKLTEVPALVHKDTVVKSVIVEPEGIEKEQTYNTLLCPQDTELQDNWSLELPPNVVEGSARATHSVLGDILGSAMQNLQNLLQMPYGCGEQNMVLFVPNIYVLNYLNETQQLTEAIKSKAINYLISGYQRQLNYQHSDGSYSTFGNHGGGNTPGNTWLTAFVLKAFAQAQSHIFIEKTHITNAFNWLSMKQKENGCFQQSGYLLNNAMKGGVDDEVTLSAYITIALLEMPLPVTHSAVRNALFCLETAWASISQSQESHVYTKALLAYAFALAGNKAKRSELLESLNKDAVKEEDSLHWQRPGDVQKVKALSFYQPRAPSAEVEMTAYVLLAYLTSESSRPTRDLSSSDLSTASKIVKWISKQQNSHGGFSSTQDTVVALQALSKYGAATFTRSQKEVLVTIESSGTFSKTFHVNSGNRLLLQEVRLPDLPGNYVTKGSGSGCVYLQTSLKYNILPVADGKAPFALQVNTLPLNFDKAGDHRTFQIRINVSYTGERPSSNMVIVDVKMVSGFIPMKPSVKKLQDQPNIQRTEVNTNHVLIYIEKLTNQTLGFSFAVEQDIPVKNLKPAPIKVYDYYETDEFTVEEYSAPFSDGSEQGNA	144.69	112.88
Complement factor I (protein, UniProt Q61129 19-603, looked up) Complement factor I: RSPSASDLPQEELVDQKCLLQKYTHRSCNKVFCQPWQRCIEGTCICKLPYQCPRAGTPVCAMNGRSYPTYCHQKSFECLHPEIKFSHNGTCAAEGKFNVSLIYGRTKTEGLVQVKLVDQDERMFICKNSWSMAEANVACVDLGFPLGVRDIQGSFNISGNLHINDTECLHVHCRGVETSLAECAFTKRRTELSNGLAGVVCYKQDADFPTSLSFQCVNGKHIPQEKACNGVNDCGDQSDELCCKGCRGNASLCKSGVCIPDQYKCNGEVDCITGEDESRCEEDRQQNIPKGLARSAQGEAEIETEETEMLTPGMDNERKRIKSLLPKLSCGVKRNTHTRRKRVIGGKPANVGDYPWQVAIKDGQRITCGGIYIGGCWILTAAHCVRPSRAHSYQVWTALLDWLKPNSQLGIQTVKRVIVHEKYNGATFQNDIALIEMKMHTGKKECELPNSVPACVPWSPYLFQPNDRCIISGWGRGKDNQKVYSLRWGEVDLIGNCSQFYPDRYYEKEMQCAGTRDGSIDACKGDSGGPLVCEDINNVTYVWGIVSWGENCGKPEFPGVYTRVANYFDWISYHVGRSLVSQHNV	19.583	17.579
Serine protease inhibitor A3N (protein, UniProt Q91WP6 21-418, looked up) Serine protease inhibitor A3N: FPDGTLGMDAAVQEDHDNGTQLDSLTLASINTDFAFSLYKELVLKNPDKNIVFSPLSISAALAVMSLGAKGNTLEEILEGLKFNLTETSEADIHQGFGHLLQRLNQPKDQVQISTGSALFIEKRQQILTEFQEKAKTLYQAEAFTADFQQPRQAKKLINDYVRKQTQGMIKELVSDLDKRTLMVLVNYIYFKAKWKVPFDPLDTFKSEFYAGKRRPVIVPMMSMEDLTTPYFRDEELSCTVVELKYTGNASALFILPDQGRMQQVEASLQPETLRKWKNSLKPRMIDELHLPKFSISTDYSLEDVLSKLGIREVFSTQADLSAITGTKDLRVSQVVHKAVLDVAETGTEAAAATGVKFVPMSAKLYPLTVYFNRPFLIMIFDTETEIAPFIAKIANPK	20.67	19.43
Afamin (protein, UniProt O89020 22-608, looked up) Afamin: LPTKPQDVDHFNATQKFIDENTTYLAIIAFSQYVQEASFDEVETLVKVMLDYRDRCWADNTLPECSKTANDAIQDMLCDMEGLPQKHNFSHCCGKAGFPRRLCFFYNKKANVGFLPPFPTLDPEEKCQAYKNNSESFLHLYMYEVARRNPFVFAPVLLAVAAWFEEAATTCCEQQQKATCFQAKAAPITQYLKASSSYQRNVCGALIKFGPKVLNSINVAVFSKKFPKIGFKDLTTLLEDVSSMYEGCCEGDVVHCIRSQSQVVNHICSKQDSISSKIKVCCEKKTLEREACIINANKDDRPEGLSLREAKFTESENVCQERDSDPDKFFAEFIYEYSRRHPDLSTPELLRITKVYMDFLEDCCSRENPAGCYRHVEDKFNETTQRSLAMVQQECKQFQELGKDTLQRHFLVKFTKAAPQLPMEELVSLSKEMVAALTTCCTLSDEFACVDNLADLVLGELCGVNTNRTINPAVDHCCKTDFAFRRHCFEHLKADTTYELPSVSALVSALHTDWCQPRKEDLQNKKHRFLVNLVKWMPGITDEEWLCLFTKFTAAREECSEVQEPESCFSPESSKTGDESQATEKQR	17.407	12.028
Histidine-rich glycoprotein (protein, UniProt Q9ESB3 19-525, looked up) Histidine-rich glycoprotein: LSPTNCDASEPLAEKVLDLINKGRRSGYVFELLRVSDAHLDRAGTATVYYLALDVIESDCWVLSTKAQDDCLPSRWQSEIVIGQCKVIATRYSNESQDLSVNGYNCTTSSVSSALRNTKDSPVLLDFFEDSELYRKQARKALDKYKTDNGDFASFRVERAERVIRARGGERTNYYVEFSMRNCSTQHFPRSPLVFGFCRALLSYSIETSDLETPDSIDINCEVFNIEDHKDTSDMKPHWGHERPLCDKHLCKLSGSRDHHHTHKTDKLGCPPPPEGKDNSDRPRLQEGALPQLPPGYPPHSGANRTHRPSYNHSCNEHPCHGHRPHGHHPHSHHPPGHHSHGHHPHGHHPHSHHSHGHHPPGHHPHGHHPHGHHPHGHHPHGHHPHGHDFLDYGPCDPPSNSQELKGQYHRGYGPPHGHSRKRGPGKGLFPFHHQQIGYVYRLPPLNIGEVLTLPEANFPSFSLPNCNRSLQPEIQPFPQTASRSCPGKFESEFPQISKFFGYTPPK	18.495	14.804
